Experimental data: patent US20050049204A1, “Compounds for the treatment of flaviviridae infections” (priority 2003, published 2005)

Tested on: HCV replicon RNA in Huh7 cells
Assay: Reversal studies with natural nucleosides: HCV RNA
Assay type: cell-based, hepatitis C virus (HCV)
Conditions: natural nucleoside at 50 μM; test compound at the concentration given in Table 2
Method: Incubation times differed according to the type of experiment.
Cells were incubated with the test compound and, simultaneously, the natural ribo- or 2′-deoxy nucleosides (adenosine, guanosine (G), cytidine (C), uridine (U), 2′-deoxycytidine (dC), 2′-deoxyuridine, thymidine, 2′-deoxyguanosine (dG), and 2′-deoxyadenosine) (Table 2).

How did the “antiviral and toxic effect prevented by (natural nucleoside)” value turn out when `C[C@@]1(O)[C@H](O)[C@@H](CO)O[C@H]1n1cnc2c(N)ncnc21` [2′C—CH3-A, 2′-C-methyl-adenosine] was run?
Its value is “could not be prevented by any of the natural nucleosides”.
